Assay results reported in PubChem BioAssay AID687043 (Milwaukee Institute for Drug Discovery, 2013).
The list shows a part of the results, in another mix than the full data. Activity calls are given as the source filed them.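 The calls were made as follows: active = inhibition above the average over every tested compound plus 3 SD (cut at about 40% in these data); inactive = the rest.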

System: Hepatitis C virus NS3 helicase
Test: compounds blocking NS3h DNA binding – biochemical, fluorescence polarization, ChemBridge library, primary screen (AID 687043)
Conditions: NS3h Cy5-dT15 DNA binding, at 100 µM, stronger effect = higher value

SMILES	inhibition
CP(=O)(Oc1ccccc1)Oc1ccccc1	inactive: -6.5%
CP(=O)(Oc1ccc(Cl)cc1)Oc1ccc(Cl)cc1	inactive: 1.6%
CN(C)CCOC(=O)C(O)(c1ccccc1)c1ccccc1	inactive: 9.1%
CP(=O)(Oc1ccccc1F)Oc1ccccc1F	inactive: -8.6%
CCc1ccc(OP(C)(=O)O)cc1	inactive: -0.3%
CP(=O)(Oc1ccc(F)cc1)Oc1ccc(F)cc1	inactive: -7.2%
